This note sets out measurements from patent US20250170127A1, “RE-SENSITIZING MULTIDRUG-RESISTANT (MDR) GRAM-NEGATIVE BACTERIA TO COLISTIN USING IONOPHORES” (The Regents of the University of Colorado, a body corporate, priority 2022, published 2025).

Bounds are passed on as bounds.

For the series, the system named is HeLa cells. The series is classed as cell-based, human. Particulars: GI50 in HeLa / MRC in AR-0493. The method, then: These 10 compounds were tested for their MICs and minimum re-sensitizing concentrations (MRCs) in the presence colistin at 2 μg/mL in E. coli AR-0493. […] To evaluate their toxicity in mammalian cells, the present inventors treated human epithelial adenocarcinoma HeLa cells with each compound at a wide range of concentrations.
To evaluate the mammalian toxicity of these analogs, Applicants tested them in cell viability assay using human cervical adenocarcinoma HeLa cells. Their respective half maximal growth inhibition concentration (GI50) was calculated using KaleidaGraph. The selectivity index (SI) for each compound was also calculated as the ratio of their GI50 and MRC. […] Therefore, Applicants selected two bisanilino analogs, 7l and 7m, that bear chlorines at the meta- and para-positions, respectively, of the phenyl groups for further characterization studies. […]. […] Their mammalian toxicities were also evaluated, and SIs calculated. […] Applicants we next explored the scope of analogs 71 and 7m their colistin-potentiating activity in 8 different MDR Gram negative bacteria with diverse genetic backgrounds and resistance mechanisms (Table 7). All strains were obtained from CDC and FDA Antibiotic Resistance Bank. For example, E. coli AR-0493 and K. pneumoniae AR-0497 carry the plasmid that contains the most prevalent mcr-1 gene. E. coli AR-0538, Salmonella Typhimurium AR-0539 and AR-0635 contain the mcr-2, 3, and 4 genes, respectively. These genes encode the phosphoethanolamine transferase, which was originated form the chromosome of A. baumannii, such as AR-0310. […]. A. baumannii AR-0310 appears more sensitive to these two compounds and the MICs of colistin was reduced to 0.25 μg/mL.
General Methods. MDR strains E. coli AR-0493, AR-0346, and AR-0538, Salmonella Enteritidis AR-0496, Salmonella Typhimurium AR-0635, K. pneumoniae AR-0497, A. baumannii AR-0300 and AR-0310 were all obtained from the CDC & FDA Antibiotic Resistance Isolate Bank. E. coli K-12 was a gift from the Copley lab (Department of MCD Biology, University of Colorado Boulder). HeLa cells were purchased from the ATCC. All bacterial strains were grown on trypticase soy agar supplemented with 5% sheep blood (BAP). Bacteria were then cultured in Luria-Bertani (LB) medium at 35° C. until they achieve the log phase before screening or antimicrobial testing using CAMHB media. MIC, MRC, and checkerboard analyses and mammalian growth inhibition analyses in Hela cells were performed as described previously. More details are given in Supporting information.
As to `c1ccc(Nc2nc3nonc3nc2Nc2ccccc2)cc1` [Compound 7a], the “SI (Selective Index), ratio of GI50 and MRC” value (“SI (Selective Index), ratio” for short) amounted to 8.8.
For `Cc1cccc(Nc2nc3nonc3nc2Nc2cccc(C)c2)c1` [Compound 7c], the “SI (Selective Index), ratio” value is on record as 30.
As to `Cc1ccc(Nc2nc3nonc3nc2Nc2ccc(C)cc2)cc1` [Compound 7d], the “SI (Selective Index), ratio” value turned out to be 22.
On to `Fc1cccc(Nc2nc3nonc3nc2Nc2cccc(F)c2)c1` [Compound 7i], for which the “SI (Selective Index), ratio” value was determined as 40.
For the compound `Fc1ccc(Nc2nc3nonc3nc2Nc2ccc(F)cc2)cc1` [Compound 7j], the “SI (Selective Index), ratio” value stood at 19.
The result for `FC(F)(F)Oc1cccc(Nc2nc3nonc3nc2Nc2cccc(OC(F)(F)F)c2)c1` [Compound 7o] reads 17.
`FC(F)(F)Oc1ccc(Nc2nc3nonc3nc2Nc2ccc(OC(F)(F)F)cc2)cc1` [Compound 7p]: the “SI (Selective Index), ratio” value is recorded as 23.
As for `Cc1cccc(Nc2nc3nonc3nc2Nc2cccc(OC(F)(F)F)c2)c1` [Compound 7r], the “SI (Selective Index), ratio” value was found to be 24.
With `COc1ccccc1Nc1nc2nonc2nc1O` [Compound 8e], the “SI (Selective Index), ratio” value is on record as greater than 24.
The same measure for `Cc1cccc(Nc2nc3nonc3nc2Cl)c1` [ST024336, reference compound]: 5.
